Anti-infective test results gathered from many reports (values: NIAID ChemDB through PubChem).

Common to all: growth or infection tests; agent: Poliovirus; endpoint: inhibition

Rows are shuffled and stem from different studies. Inhibition is in % at the dose shown (toxicity tests: loss of growth or viability).

compound,strain,dose,cell line,value
CC(C)=CCC[C@@H](COS(=O)(=O)O)C1CCC2C3CC[C@H]4C[C@H](OS(=O)(=O)O)[C@@H](O)CC4(C)C3CCC21C,TYPE 3,80 µg/mL,VERO,42.5%
O=c1c(O)c(-c2ccc(Cl)c(Cl)c2)oc2ccccc12,TYPE 2,6.25 µM,HeLa,15%
CC(=O)O[C@H]1CC2=CCC3C(CCC4(C)C(C(CCC=C(C)C)COS(=O)(=O)O)CCC34)C2(C)C[C@@H]1OS(=O)(=O)O,TYPE 3,80 µg/mL,VERO,79.4%
CC(C)CCC[C@@H](COS(=O)(=O)O)[C@H]1CC[C@H]2[C@@H]3CC[C@@H]4[C@H](O)[C@H](OS(=O)(=O)O)CC[C@]4(C)[C@H]3[C@@H](O)C[C@]12C,SABIN (TYPE 3),10 µg/mL,VERO,26%
CC(=O)c1ccc2c(c1)S(=O)(=O)c1ccccc1O2,TYPE 3,0.4 µg/mL,BSC-1,12%
CC(=O)c1c(-c2ccc(Cl)c(Cl)c2)oc2ccccc2c1=O,TYPE 2,25 µM,HeLa,23%
Clc1ccc2c(c1)C=C(c1ccccc1)CO2,SABIN (TYPE 2),10 µM,HEP-2,100%
CCC(=O)C(CCCCCCOc1ccc(OC)cc1Cl)C(=O)CC,MEF (TYPE 2),0.27 µM,HeLa,83%
CNC(=O)OC(C)c1ccc2c(c1)Sc1ccccc1O2,TYPE 3,2 µg/mL,BSC-1,22%
C1=C(c2ccccc2)COc2ccccc21,IA (TYPE 2),10 µM,HEP-2,100%
CC(O)c1ccc2c(c1)S(=O)c1ccccc1O2,TYPE 3,2 µg/mL,BSC-1,15%
Clc1ccc(C2=Cc3cc(Cl)ccc3OC2)cc1,SABIN (TYPE 2),10 µM,HEP-2,48%
CC(C)/C=C/[C@@H](COS(=O)(=O)O)[C@H]1CC[C@H]2[C@@H]3CC[C@@H]4[C@H](O)[C@H](OS(=O)(=O)O)CC[C@]4(C)[C@H]3[C@@H](O)C[C@]12C,SABIN (TYPE 3),10 µg/mL,VERO,21%
c1ccc(C2COc3ccccc3C2)cc1,IB (TYPE 2),10 µM,HEP-2,15%
CC(C)=CCCC(COS(=O)(=O)O)C1CCC2C3CC=C4C[C@H](O)[C@@H](OS(=O)(=O)O)CC4(C)C3CCC12C,TYPE 3,40 µg/mL,VERO,2%
CC(=O)c1c(-c2ccc(Cl)cc2)oc2ccccc2c1=O,TYPE 2,25 µM,HeLa,23%
Clc1ccc(C2COc3ccccc3C2)cc1,II (TYPE 2),10 µM,HEP-2,0%
CC(=O)c1cccc(Oc2ccccc2)c1,TYPE 3,2 µg/mL,BSC-1,100%
CC(=O)Oc1ccc(/C=C/C(=O)Oc2c(-c3ccc(Cl)c(Cl)c3)oc3ccccc3c2=O)cc1OC(C)=O,TYPE 2,0.39 µM,HeLa,13%
CC(OC(=O)Nc1ccc2ccccc2c1)c1ccc2c(c1)Sc1ccccc1O2,TYPE 3,2 µg/mL,BSC-1,10%
Clc1ccc2c(c1)C=C(c1ccc(Br)cc1)CO2,II (TYPE 2),10 µM,HEP-2,4%
CC(=O)c1ccc2c(c1)[S@@](=O)c1ccccc1O2,TYPE 3,2 µg/mL,BSC-1,20%
O=C(/C=C/c1ccc(O)c(O)c1)Oc1c(-c2ccc(Cl)c(Cl)c2)oc2ccccc2c1=O,TYPE 2,6.25 µM,HeLa,29%
COC(C)c1ccc2c(c1)Sc1ccccc1O2,TYPE 3,0.4 µg/mL,BSC-1,86%
CC12CC[C@H](OS(=O)(=O)O)CC1=CCC1C2CCC2(C)C(C(=O)COS(=O)(=O)O)CCC12,TYPE 3,80 µg/mL,VERO,0%